Compound potency records, mixed from different reports. Data source: NIAID ChemDB in PubChem.

All rows: target-level tests; organism: HIV-1; target: Protease

Blank or dashed fields: not listed here. ICn is the concentration giving n% inhibition. Conditions beyond the fields shown may differ between rows.

structure	read by	endpoint	setting	value
C=C(C)[C@@H]1CC[C@]2(C(=O)O)CC[C@]3(C)[C@H](CC[C@@H]4[C@@]5(C)CC[C@H](OC(=O)CC(C)(C)CC(=O)O)C(C)(C)[C@@H]5CC[C@]43C)[C@@H]12	HPLC	IC50	-	4 µM
CCC[C@H](NC(=O)COc1cccc2ccccc12)C(=O)N[C@@H](Cc1ccccc1)[C@H](O)C(=O)N1CSC[C@H]1C(=O)NC(C)(C)C	-	IC50	-	<0.05 µM
CC1(C)CC[C@]2(C(=O)O)CC[C@]3(C)C(=CCC4[C@@]5(C)CC[C@H](OC(=O)CC(=O)O)C(C)(C)C5CC[C@]43C)C2C1	HPLC	IC50	-	8 µM
CC(C)c1nc(CN(C)C(=O)N[C@H](C(=O)NN(Cc2ccccc2)C[C@H](O)[C@H](Cc2ccccc2)NC(=O)OCc2ccccc2)C(C)C)cs1	fluorescence	IC50	-	<0.0005 µM
CC(C)(C)NC(=O)c1ccccc1C[C@@H](O)[C@H](Cc1ccccc1)NC(=O)[C@H](CC(=O)NNc1ccccn1)NC(=O)c1ccc2ccccc2n1	fluorescence	IC50	-	0.00016 µg/mL
CC(C)CCN(C[C@@H](O)[C@H](Cc1ccccc1)NC(=O)OCc1ccccc1)S(C)(=O)=O	fluorescence	IC50	-	<10 µM
CC(C)C[C@H](NC(=O)[C@@H]1CCCN1C(=O)[C@@H](O)[C@H](Cc1ccccc1)NC(=O)[C@H](CC(N)=O)NC(=O)CCc1ccccc1)C(=O)N[C@H](C(N)=O)C(C)C	-	IC50	-	~5 µM
CC(C)(C)NC(=O)c1ccccc1C[C@@H](O)[C@H](Cc1ccccc1)NC(=O)[C@H](CC(N)=O)C(N)C(=O)c1ccc2ccccc2c1	fluorescence	IC50	-	0.0071 µg/mL
CC(C)c1nc(CN(C)C(=O)N[C@H](C(=O)N[C@@H](Cc2ccccc2)[C@@H](O)CN(Cc2ccccc2)NC(=O)OC(C)(C)C)C(C)C)co1	fluorescence	IC50	-	<0.0005 µM
O=C(N[C@@H](CO)NC(=O)[C@H](Cc1ccc(O)cc1)NC(=O)OCc1ccccc1)OCc1ccccc1	substrate cleavage	IC50	-	0.59 µM
CC(C)c1nc(CN(C)C(=O)N[C@H](C(=O)NN(Cc2ccccc2)C[C@H](O)[C@H](Cc2ccccc2)NC(=O)OCc2ccno2)C(C)C)co1	fluorescence	IC50	-	<0.0005 µM
COc1ccc(S(=O)(=O)N(CC(C)C)C[C@@H](O)[C@H](Cc2ccccc2)NC(=O)c2ccccc2S(C)(=O)=O)cc1	fluorescence	IC50	-	<10 µM
CC(C)c1nc(CN(C)C(=O)N[C@H](C(=O)NN(Cc2ccccc2)C[C@H](O)[C@H](Cc2ccccc2)NC(=O)OCc2ccccc2)C(C)C)co1	fluorescence	IC50	-	<0.0005 µM
O=C(N[C@@H](CC1CCCCC1)C(=O)NC(CO)NC(=O)[C@H](CC1CCCCC1)NC(=O)OCC1c2ccccc2-c2ccccc21)OCC1c2ccccc2-c2ccccc21	substrate cleavage	IC50	-	0.55 µM
CC(C)CCN(C[C@@H](O)[C@H](Cc1ccccc1)NC(=O)OCc1ccccc1)S(=O)(=O)C(F)(F)F	fluorescence	IC50	-	<10 µM
COC(=O)CCCC(=O)O[C@H]1CC[C@@]2(C)C(CC[C@]3(C)C2CC=C2C4[C@@H](C)[C@H](C)CC[C@]4(C(=O)OC)CC[C@]23C)C1(C)C	HPLC	IC50	-	>50 µM
CC(=O)N1C2C3(CO)C(c4ccccc4)C4(CO)C1C1(CO)C(c5ccccc5)C2(CO)C3N(C(C)=O)C41	absorbance	IC50	-	>50 µM
C[C@H](C(=O)NC(C)(C)C)n1nnnc1C[C@H](Cc1ccccc1)NC(=O)[C@H](CC(N)=O)NC(=O)c1ccc2ccccc2n1	-	IC50	-	300 ± 10 µM
Cn1ccc2c(C(=O)N[C@@H](CSc3ccc4ccccc4c3)[C@H](O)Cc3ccccc3C(=O)NC(C)(C)C)cccc21	fluorescence	IC50	-	>15 µg/mL
O=C(NC(CO)NC(=O)[C@@H]1Cc2ccccc2CN1C(=O)OCC1c2ccccc2-c2ccccc21)[C@@H]1Cc2ccccc2CN1C(=O)OCC1c2ccccc2-c2ccccc21	substrate cleavage	IC50	-	0.385 µM
COc1cc(Br)c(C(=O)N[C@@H](Cc2cccc(Oc3ccccc3)c2)[C@@H](O)CN(CCc2ccc(Cl)cc2Cl)C(=O)CCN2C(=O)c3ccccc3C2=O)cc1OC	fluorescence	Ki	-	0.0007 µM
CC1CCC2C(C)(C)C(O)CCC2(C)C12Cc1c(cc3c(c1O)C(=O)NC3=O)O2	substrate cleavage / HPLC	IC50	-	375 µM
COc1ccc(C2C3(CO)C4N(C(=O)Oc5ccccc5)C5C2(CO)C2N(C(=O)Oc6ccccc6)C3C4(CO)C(c3ccc(OC)cc3)C52CO)cc1	absorbance	IC50	-	>50 µM
CC1(C)CC[C@]2(C(=O)O)CC[C@]3(C)C(=CCC4[C@@]5(C)CC[C@H](OC(=O)C(=O)O)C(C)(C)C5CC[C@]43C)C2C1	HPLC	IC50	-	20 µM
CC(C)CCN(C[C@@H](O)[C@H](Cc1ccccc1)NC(=O)OCc1ccccc1)S(=O)(=O)c1ccccc1[N+](=O)[O-]	fluorescence	IC50	-	<10 µM
CC(=O)N[C@H](C(=O)N[C@@H](CC(C)C)C(=O)N[C@@H](CC(N)=O)C(=O)N[C@@H](Cc1ccccc1)C(=O)O)[C@@H](C)O	fluorescence	IC50	pH 7.0	29.5 µM
CC[C@H](C)[C@H](NC(=O)[C@@H]1CCCN1C(=O)[C@H](O)[C@H](Cc1ccccc1)NC(=O)[C@H](CO)NC(=O)Cc1ccccc1)C(=O)N[C@H](C(N)=O)C(C)C	-	IC50	-	<5 µM
Cc1c(OP(=O)(O)O)cccc1C(=O)N[C@@H](CSc1ccccc1)[C@H](O)CN1C[C@H]2CCCC[C@H]2C[C@H]1C(=O)NC(C)(C)C	fluorescence	IC50	-	0.004 µg/mL
CC(C)(C)NC(=O)[C@@H]1CCCN1C(=O)[C@@H](O)[C@H](Cc1ccccc1)NC(=O)[C@H](CC(N)=O)NC(=O)OCc1ccccc1	substrate cleavage	IC50	-	0.02 µM
C[C@@H](C(=O)NC(C)(C)C)n1nnnc1C[C@H](Cc1ccccc1)NC(=O)[C@H](CC(N)=O)NC(=O)c1ccc2ccccc2n1	-	IC50	-	170 ± 20 µM
CC(C)CCN(C[C@@H](O)[C@H](Cc1ccccc1)NC(=O)OCc1ccccc1)S(=O)(=O)CCl	fluorescence	IC50	-	<10 µM
CC(C)(C)OC(=O)N[C@@H](CO)C(=O)N[C@@H](Cc1ccccc1)[C@H](O)C(=O)NCC1CCCCC1	-	IC50	-	<1000 µM
CC1(NC(=O)c2ccccc2C[C@@H](O)[C@H](Cc2ccccc2)NC(=O)[C@H](CC(N)=O)NC(=O)c2ccc3ccccc3n2)CCCCC1	fluorescence	IC50	-	0.00076 µg/mL
COC(=O)N1C2C3(CO)C(c4ccc(OC)cc4)C4(CO)C1C1(CO)C(c5ccc(OC)cc5)C2(CO)C3N(C(=O)OC)C41	absorbance	IC50	-	>50 µM
CC(C)C[C@H](NC(=O)[C@@H](NC(=O)CCCNC(=O)[C@H](Cc1ccccc1)NC(=O)[C@H](CCC(=O)O)NC(=O)[C@H](Cc1ccccc1)NC[C@H](Cc1ccccc1)NC(=O)OC(C)(C)C)[C@@H](C)O)C(=O)N[C@@H](CC(N)=O)C(=O)N[C@@H](Cc1ccccc1)C(=O)O	fluorescence	IC50	pH 7.0	0.328 µM
COc1ccc(S(=O)(=O)N(CC(C)C)C[C@@H](O)[C@H](Cc2ccccc2)NC(=O)c2ccccc2CS(C)(=O)=O)cc1	fluorescence	IC50	-	<1 µM
CC1(C)CC[C@]2(C(=O)O)CC[C@]3(C)C(=CC[C@@H]4[C@@]5(C)CC[C@H](O)C(C)(C)[C@@H]5CC[C@]43C)[C@@H]2C1	HPLC	IC50	-	8 µM
COC(=O)c1cccc(CN2C(=O)C(=O)N(Cc3cccc(C(=O)OC)c3)[C@H](Cc3ccccc3)[C@H](O)[C@H]2CCc2ccccc2)c1	-	Ki	-	0.04 µM
COc1cccc(C(=O)N[C@@H](Cc2ccccc2)[C@H](O)CN2C[C@H]3CCCC[C@H]3C[C@H]2C(=O)NC(C)(C)C)c1C	fluorescence	IC50	-	0.0083 µg/mL
CC1CCC2C(C)(C)C(O)CCC2(C)C12Cc1c(cc(CO)c(C=O)c1O)O2	substrate cleavage / HPLC	IC50	-	115 µM
C[C@H]1[C@H](C)CC[C@]2(C(=O)O)CC[C@]3(C)C(=CC[C@@H]4[C@@]5(C)CC[C@H](OC(=O)CCC(=O)O)C(C)(C)[C@@H]5CC[C@]43C)[C@H]12	HPLC	IC50	-	6 µM
CC[C@@H](C)[C@H](NC(=O)[C@@H]1CCCN1C(=O)[C@@H](O)[C@H](CC1CCCCC1)NC(=O)[C@H](Cc1cnc[nH]1)NC(=O)CCc1ccccc1)C(=O)N[C@H](C(N)=O)C(C)C	-	IC50	-	<5 µM
COc1ccc(C2C3(CO)C4N(C(C)=O)C5C2(CO)C2N(C(C)=O)C3C4(CO)C(c3ccc(OC)cc3)C52CO)cc1	absorbance	IC50	-	>25 µM

For reference, 2 entries again:

COc1ccc(S(=O)(=O)N(CC(C)C)C[C@@H](O)[C@H](Cc2ccccc2)NC(=O)c2ccccc2S(C)(=O)=O)cc1 ; read by: fluorescence ; endpoint: IC50 ; value: <10 µM
COC(=O)CCCC(=O)O[C@H]1CC[C@@]2(C)C(CC[C@]3(C)C2CC=C2C4[C@@H](C)[C@H](C)CC[C@]4(C(=O)OC)CC[C@]23C)C1(C)C ; read by: HPLC ; endpoint: IC50 ; value: >50 µM